Measured values from several laboratories, pooled; numbers as filed in NIAID ChemDB.

Common to all: tests in culture

ECn: concentration that inhibits the pathogen or its effect by n%. An empty or dashed field is not shown. Rows are shuffled and stem from different studies. A number after MIC or MFC names an inhibition level or a share of isolates. Percent inhibition refers to the dose given; in toxicity tests it is the harm to the cells.

structure	cells	setting	read-out	strain or isolate	organism	dose	method	value
C#CC[C@@H](C(=O)N[C@H](/C=C/C(=O)OCC)C[C@@H]1CCNC1=O)n1cccc(NC(=O)c2cc(C)on2)c1=O	H1-HELA		inhibition	Serotype 2	Rhinovirus	0.077 µM	cytopathic effect / XTT	90%
Cc1c(N2C[C@H]3CCCC[C@@]3(CN)C2)c(F)cn2c(=O)c(C(=O)O)cc(C3CC3)c12			MIC	EES61	Streptococcus pyogenes			0.005 µg/mL
Nc1ncnc2c1ncn2CCOCP(=O)(O)O	HEL		EC50	Oka BVaraU-resistant	Varicella zoster virus		cytopathic effect	26.4 µM
Nc1ccn([C@@H]2C=C(CO)[C@@H](O)[C@@H]2O)c(=O)n1	VERO		EC50	NEW YORK	West Nile virus		cytopathic effect / visual reading	0.9 µg/mL
Nc1ncnc2c1ncn2C[C@@H](CO)OCP(=O)(O)O	C1271		EC50	Ganciclovir-resistant	Mouse cytomegalovirus		plaque count	8.5 µM
Nc1nc(=O)n2ccn([C@@H]3O[C@H](CO)[C@@H](O)[C@H]3O)c2n1	VERO		EC50	New York isolates	West Nile virus		cytopathic effect	9.5 µg/mL
NC(=O)c1[nH]nc([C@@H]2O[C@H](CO)[C@@H](O)[C@H]2O)c1O	HeLa		EC50	58-14	Respiratory syncytial virus		cytopathic effect	0.1 µg/mL
c1cc(CN2CCCNCCNCCCNCC2)ccc1CN1CCCNCCNCCCNCC1	PBMC		inhibition	SW30 CLADE C R5X4	HIV-1	0.5 µM	p24	85%
CCCCCCCCCN1[C@H](CN)[C@@H](O)[C@H](O)[C@H]1CO			EC50		Dengue virus			>50 µM
CCCSc1ccc2nc(NC(=O)OC)[nH]c2c1	RK-13		inhibition		Encephalitozoon intestinalis	1 µg/mL		87.4%
Cc1c(N2CC[C@H](N)C2)c(F)cn2c(=O)c(C(=O)NCC(=O)O)cc(C3CC3)c12			MIC	EES61	Streptococcus pyogenes			50 µg/mL
Nc1nc2c(ncn2COC(COCP(=O)(O)O)COCP(=O)(O)O)c(=O)[nH]1	C1271		EC50	Foscarnet-resistant	Mouse cytomegalovirus		plaque count	1.9 µM
CC[C@H](N)C1CCN(c2c(F)cn3c(=O)c(C(=O)O)cc(C4CC4)c3c2C)C1			MIC	EES61	Streptococcus pyogenes			0.002 µg/mL
Nc1cc2[nH]cnc2c(=O)[nH]1	HeLa		EC50	58-8	Respiratory syncytial virus		cytopathic effect	1 µg/mL
C[C@H]1NCc2cc(-c3ccc4c(=O)c(C(=O)O)cn(C5CC5)c4c3OC(F)F)ccc21			MIC90	25 strains (ofloxacin-resistant)	Staphylococcus aureus			8 µg/mL
CCCCC1=Nc2c(cc(NC(=O)OCC)nc2N)NC1C	RK-13		inhibition		Encephalitozoon intestinalis	1 µg/mL		77.3%
CCOc1cc(Cc2cnc(N)nc2N)cc(OCC)c1-n1cccc1			MBC	ATCC 35840	Mycobacterium ulcerans			0.5 µg/mL
CCC[C@H](N)C1CCN(c2c(F)cn3c(=O)c(C(=O)O)cc(C4CC4)c3c2C)C1			MIC	ATCC 8043	Enterococcus faecium			0.01 µg/mL
CO[C@@H]1[C@H](OC(=O)NC(=O)CCl)CC[C@]2(CO2)[C@H]1[C@@]1(C)O[C@@H]1CC=C(C)C	RK-13		inhibition		Encephalitozoon intestinalis	0.001 µg/mL		83.6%
Cc1c(N2CCC[C@@H](N)C2)c(F)cn2c(=O)c(C(=O)O)cc(C3CC3)c12			MIC	ATCC 8043	Enterococcus faecium			0.05 µg/mL
NC(=O)c1ncn([C@@H]2O[C@H](CO)[C@@H](O)[C@H]2O)n1	HEP-2		EC50	FM-58-8	Respiratory syncytial virus		plaque count	24.1 µM
CN(C)c1ccc(O)c2c1C[C@H]1C[C@H]3[C@H](N(C)C)C(=O)C(C(N)=O)=C(O)[C@@]3(O)C(=O)C1=C2O			MIC90	24 strains (ofloxacin-susceptible)	Staphylococcus aureus			8 µg/mL
Cc1cn([C@H]2C[C@H](N=[N+]=[N-])[C@@H](CO)O2)c(=O)[nH]c1=O	PBMC		EC90		SHIV		p24 / ELISA	0.03 µM
Cc1cn([C@H]2C[C@H](N=[N+]=[N-])[C@@H](COP(=O)(O)OC[C@H]3OC(O)[C@H](O)[C@@H](O)[C@@H]3O)O2)c(=O)[nH]c1=O	PBL	7 d	inhibition	LAV-Bru	HIV-1	1 µM	RT activity	94%
O=C1O[C@H]([C@@H](O)CO)C(O)=C1O	HeLa		EC50		Rhinovirus			<3.1 µg/mL
N#CC[C@H](C1CCCC1)n1cc(-c2ncnc3[nH]ccc23)cn1	Macrophage		EC90		SHIV		p24 / ELISA	4.2 µM
COc1ccc(OC)c(NCc2cnc3nc(N)nc(N)c3c2C)c1	RK-13		inhibition		Encephalitozoon intestinalis	0.01 µg/mL		4.8%
CC(=O)NC[C@H]1CN(c2ccc(N3CCOCC3)c(F)c2)C(=O)O1			MIC90	25 strains (ofloxacin-resistant)	Staphylococcus aureus			2 µg/mL
CC1=CC(=O)c2c(O)cccc2C1=O	RK-13		inhibition		Encephalitozoon intestinalis	0.1 µg/mL		37.9%
Nc1nc2c(ncn2CC(CO)OCP(=O)(O)O)c(=O)[nH]1	C1271		EC50	WILD TYPE	Mouse cytomegalovirus		plaque count	0.8 µM
CCCCCCN(CC1=C(O)c2ccccc2C(=O)C1=O)Cc1ccccc1			EC50	ATO	Toxoplasma gondii			1.4 µM
Oc1cc(O)c2c(c1)OC(c1ccc(O)c(O)c1)[C@@H](O)C2			MIC50	Clinical isolate 2	Candida tropicalis		broth dilution	>128 µg/mL
CCOC(=O)Nc1cc2[nH]c(=O)c(-c3ccccc3)nc2c(N)n1	RK-13		inhibition		Encephalitozoon intestinalis	0.1 µg/mL		71%
Cc1c(N2C[C@H]3CCCC[C@@]3(N)C2)c(F)cn2c(=O)c(C(=O)O)cc(C3CC3)c12			MIC	EES61	Streptococcus pyogenes			0.1 µg/mL
NC(=O)c1ncn([C@@H]2O[C@H](CO)[C@@H](O)[C@H]2O)n1	CV-1		EC50	SA	Measles virus		cytopathic effect	20 µg/mL
CSCC[C@H](N)C1CCN(c2c(F)cn3c(=O)c(C(=O)O)cc(C4CC4)c3c2C)C1			MIC	EES61	Streptococcus pyogenes			0.002 µg/mL
Nc1ccn(C[C@@H](CO)OCP(=O)(O)O)c(=O)n1	C1271		EC50	HPMPC-resistant	Mouse cytomegalovirus		plaque count	4.7 µM
C[C@H]1CN(c2c(F)cc3c(=O)c(C(=O)O)cn(C4CC4)c3c2OC(F)F)CCN1			MIC50	10 strains	Enterococcus faecium			2 µg/mL
NC(=O)c1ncn([C@@H]2O[C@H](CO)[C@@H](O)[C@H]2O)n1	HEP-2		inhibition	LONG	Respiratory syncytial virus	3.2 µg/mL	plaque count	70%
C=CCc1cc(C(=O)O)c(=O)n2cc(F)c(N3CC[C@H](N)C3)c(C)c12			MIC	EES61	Streptococcus pyogenes			6.2 µg/mL
CO[C@H]1/C=C/O[C@@]2(C)Oc3c(C)c(O)c4c(O)c(c5c(c4c3C2=O)NC2(CCN(CC(C)C)CC2)N=5)=NC(=O)/C(C)=C\C=C\[C@H](C)[C@H](O)[C@@H](C)[C@@H](O)[C@@H](C)[C@H](OC(C)=O)[C@@H]1C			MIC90	20 strains (methicillin-susceptible)	Staphylococcus aureus			0.0313 µg/mL
C=Cc1cc(C(=O)O)c(=O)n2cc(F)c(N3CC[C@H](N)C3)c(C)c12			MIC	EES61	Streptococcus pyogenes			3.1 µg/mL
O=c1[nH]cnc2c([C@@H]3O[C@H](CO)[C@@H](O)[C@H]3O)[nH]nc12	VERO		EC50	NEW YORK	West Nile virus		cytopathic effect	>43 µg/mL
CO[C@H]1/C=C/O[C@@]2(C)Oc3c(C)c(O)c4c(=O)c(c5oc6cc(N7CCN(CC(C)C)CC7)cc(=O)c6nc5c4c3=C2O)NC(=O)/C(C)=C\C=C\[C@H](C)[C@H](O)[C@@H](C)[C@@H](O)[C@@H](C)[C@H](OC(C)=O)[C@@H]1C			MIC	ATCC 29213	Staphylococcus aureus			0.0313 µg/mL
S=C(S)N1CCCC1	HeLa		EC50	TYPE 14	Rhinovirus			>31 µM
CN(C)[C@@H]1C(=O)C(C(N)=O)=C(O)[C@@]2(O)C(=O)C3=C(O)c4c(O)c(NC(=O)CNc5ccccc5)cc(F)c4C[C@H]3C[C@@H]12			EC50	160-tet	Streptococcus pneumoniae		agar diffusion	4 µg/mL
NC1=NCN([C@@H]2O[C@H](CO)[C@@H](O)[C@H]2O)C(=O)N1	VERO		EC50	NEW YORK	West Nile virus		cytopathic effect / visual reading	>90 µg/mL
Nc1ncnc2c1ccn2[C@@H]1O[C@H](CO)[C@@H](O)[C@H]1O	HeLa		EC50	S-8	Respiratory syncytial virus		cytopathic effect	1 µg/mL
C[C@H](Cc1ccc(O)c(O)c1)[C@@H](C)Cc1ccc(O)c(O)c1			MIC50	CCC 123-2000	Candida kefyr		broth dilution	125 µg/mL
Nc1ncnc2c1ncn2[C@H]1C[C@H](F)[C@@H](CO)O1	VERO		EC50		Punta Toro virus		plaque count	>32 µM
C[C@@H](c1nc(-c2ccc(C#N)cc2)cs1)[C@](O)(Cn1cnnc1)c1ccc(F)cc1F			MIC	A14058	Candida albicans			0.5 µg/mL
Cc1cn([C@H]2C[C@H](N=[N+]=[N-])[C@@H](COP(=O)(O)OC[C@H]3OC(O)[C@@H](O)[C@@H](O)[C@@H]3O)O2)c(=O)[nH]c1=O	CEM	22 d	inhibition	LAV-Bru	HIV-1	5 µM	RT activity	0%
Nc1ncnc2c1ccn2[C@@H]1O[C@H](CO)[C@H](O)[C@H]1O	HeLa		EC50	LONG	Respiratory syncytial virus		cytopathic effect	>4 µg/mL
COc1c(C)c2c(c(O)c1C/C=C(\C)CCC(=O)O)C(=O)OC2	MA-104		EC50	NEW YORK	West Nile virus		cytopathic effect / visual reading	0.9 µg/mL
C=CCc1ccc(O)c(-c2ccc(O)c(CC=C)c2)c1			MIC	YL 360	Candida albicans		broth dilution	64 µg/mL
N[C@@H]1CN(c2c(F)cc3c(=O)c(C(=O)O)cn([C@@H]4C[C@@H]4F)c3c2Cl)CC12CC2			MIC90	24 strains (ofloxacin-susceptible)	Staphylococcus aureus			0.06 µg/mL
COc1cc(Cc2cnc(N)nc2N)cc(OC)c1Br			MIC	Isolate 842	Mycobacterium ulcerans			4 µg/mL
Nc1ncnc2c1ncn2[C@H]1CC[C@@H](CO)O1	U-937		inhibition	LAV-2	HIV-2	0.1 µM	virus yield	60%
Cc1cn([C@H]2C[C@H](N=[N+]=[N-])[C@@H](CO)O2)c(=O)[nH]c1=O	U-937	14 d	inhibition	LAV-Bru	HIV-1	5 µM	RT activity	0%
Nc1nc2c(ncn2COCCO)c(=O)[nH]1	C1271		EC50	WILD TYPE	Mouse cytomegalovirus		plaque count	4 µM